This note sets out measurements from ChEMBL document CHEMBL1150695, “The synthesis of SO-3, a conopeptide with high analgesic activity derived from Conus striatus” (2003).

Structures are written as SMILES.

Series [1] relates to Carassius carassius. The series can be described thus: Toxicity against Carassius carassius at 1 ug/gold fish, intramuscular. Particulars: in vivo, im.
The subject of series [2] is Carassius carassius. The series is described as follows: Toxicity against Carassius carassius at 8.5 ug/gold fish, intramuscular. To be noted: in vivo, im.
Series [3] has as its system Carassius carassius. The series can be described thus: Toxicity against Carassius carassius at 0.5 ug/gold fish, intramuscular. To be noted: in vivo, im.
Series [4] has as its system Carassius carassius. The series can be described thus: Toxicity against Carassius carassius at 3 ug/gold fish, intramuscular. Particulars: in vivo, im.
Series [5] concerns Mus musculus. The series is described as follows: Analgesic activity in mouse assessed as reaction time required to elicit jumping or hind paw licking at 3 ug/kg, intracerebrally after 2.5 hrs by hot plate method. (Thermal pain tests record how soon the animal reacts.)
In series [6] the test system is Mus musculus. The series can be described thus: Analgesic activity in mouse assessed as reaction time required for tail flicking at 3.2 ug/kg, intracerebrally after 2.5 hrs by light radiation method.
In series [7] the test system is Mus musculus. The series is described as follows: Analgesic activity in mouse assessed as reaction time required to elicit jumping or hind paw licking at 3 ug/kg, intracerebrally after 4 hrs by hot plate method.
Series [8] has as its system Rattus norvegicus. The series can be described thus: Analgesic activity in rat assessed as reaction time required for tail flicking response at 1.2 ug/kg, intracerebrally after 3 hrs by tail-flicking reaction method.
Series [9] concerns Rattus norvegicus. The series is described as follows: Analgesic activity in rat assessed as reaction time required for tail flicking response at 2 ug/kg, intracerebrally after 4 hrs by tail-flicking reaction method.
Series [10] has as its system Mus musculus. The series can be described thus: Analgesic activity in mouse assessed as reaction time required to elicit jumping or hind paw licking at 0.5 ug/kg, intracerebrally after 2.5 hrs by hot plate method.
Series [11] relates to Mus musculus. The series can be described thus: Analgesic activity in mouse assessed as reaction time required to elicit jumping or hind paw licking at 1 ug/kg, intracerebrally after 2.5 hrs by hot plate method.
Series [12] concerns Mus musculus. The series can be described thus: Analgesic activity in mouse assessed as reaction time required to elicit jumping or hind paw licking at 1 ug/kg, intracerebrally after 0.5 hrs by hot plate method.
Series [13] deals with Rattus norvegicus. The series can be described thus: Analgesic activity in rat assessed as reaction time required for tail flicking response at 2 ug/kg, intracerebrally after 1 hr by tail-flicking reaction method.
Series [14] relates to Rattus norvegicus. The series is described as follows: Analgesic activity in rat assessed as reaction time required for tail flicking response at 2 ug/kg, intracerebrally after 2 hrs by tail-flicking reaction method.
The test system of series [15] is Mus musculus. The series can be described thus: Analgesic activity in mouse assessed as reaction time required to elicit jumping or hind paw licking at 1.5 ug/kg, intracerebrally after 1.5 hrs by hot plate method.
For series [16], the system named is Mus musculus. The series can be described thus: Analgesic activity in mouse assessed as reaction time required to elicit jumping or hind paw licking at 0.5 ug/kg, intracerebrally after 1.5 hrs by hot plate method.
The test system of series [17] is Mus musculus. The series is described as follows: Analgesic activity in mouse assessed as reaction time required for tail flicking at 2.2 ug/kg, intracerebrally after 2.5 hrs by light radiation method.
Series [18] deals with Mus musculus. The series is described as follows: Analgesic activity in mouse assessed as reaction time required for tail flicking at 3.2 ug/kg, intracerebrally after 4 hrs by light radiation method.
Series [19] has as its system Mus musculus. The series can be described thus: Analgesic activity in mouse assessed as reaction time required for tail flicking at 2.7 ug/kg, intracerebrally after 2.5 hrs by light radiation method.
Series [20] has as its system Mus musculus. The series is described as follows: Analgesic activity in mouse assessed as reaction time required to elicit jumping or hind paw licking at 3 ug/kg, intracerebrally after 1.5 hrs by hot plate method.
Series [21] relates to Mus musculus. The series can be described thus: Analgesic activity in mouse assessed as reaction time required to elicit jumping or hind paw licking at 1.5 ug/kg, intracerebrally after 2.5 hrs by hot plate method.
Series [22] relates to Mus musculus. The series can be described thus: Analgesic activity in mouse assessed as reaction time required to elicit jumping or hind paw licking at 0.5 ug/kg, intracerebrally after 0.5 hrs by hot plate method.
Series [23] relates to Mus musculus. The series is described as follows: Analgesic activity in mouse assessed as reaction time required for tail flicking at 2.7 ug/kg, intracerebrally after 4 hrs by light radiation method.
In series [24] the test system is Rattus norvegicus. The series can be described thus: Analgesic activity in rat assessed as reaction time required for tail flicking response at 2 ug/kg, intracerebrally after 3 hrs by tail-flicking reaction method.
Series [25] deals with Mus musculus. The series is described as follows: Analgesic activity in mouse assessed as reaction time required to elicit jumping or hind paw licking at 3 ug/kg, intracerebrally after 0.5 hrs by hot plate method.
For series [26], the system named is Mus musculus. The series is described as follows: Analgesic activity in mouse assessed as reaction time required to elicit jumping or hind paw licking at 1.5 ug/kg, intracerebrally after 0.5 hrs by hot plate method.
Series [27] deals with Mus musculus. The series can be described thus: Analgesic activity in mouse assessed as reaction time required to elicit jumping or hind paw licking at 1.5 ug/kg, intracerebrally after 4 hrs by hot plate method.
The subject of series [28] is Mus musculus. The series can be described thus: Analgesic activity in mouse assessed as reaction time required for tail flicking at 2.7 ug/kg, intracerebrally after 1 hr by light radiation method.
The subject of series [29] is Mus musculus. The series can be described thus: Analgesic activity in mouse assessed as reaction time required for tail flicking at 2.2 ug/kg, intracerebrally after 4 hrs by light radiation method.
The subject of series [30] is Mus musculus. The series can be described thus: Analgesic activity in mouse assessed as reaction time required for tail flicking at 3.2 ug/kg, intracerebrally after 3.3 hrs by light radiation method.
Series [31] relates to Mus musculus. The series can be described thus: Analgesic activity in mouse assessed as reaction time required for tail flicking at 2.7 ug/kg, intracerebrally after 3.3 hrs by light radiation method.
Series [32] has as its system Mus musculus. The series can be described thus: Analgesic activity in mouse assessed as reaction time required for tail flicking at 3.2 ug/kg, intracerebrally after 1 hr by light radiation method.
For series [33], the system named is Mus musculus. The series can be described thus: Analgesic activity in mouse assessed as reaction time required for tail flicking at 2.2 ug/kg, intracerebrally after 1 hr by light radiation method.
Series [34] relates to Mus musculus. The series is described as follows: Analgesic activity in mouse assessed as reaction time required to elicit jumping or hind paw licking at 1 ug/kg, intracerebrally after 1.5 hrs by hot plate method.
Series [35] deals with Rattus norvegicus. The series is described as follows: Analgesic activity in rat assessed as reaction time required for tail flicking response at 1.2 ug/kg, intracerebrally after 4 hrs by tail-flicking reaction method.
The subject of series [36] is Rattus norvegicus. The series can be described thus: Analgesic activity in rat assessed as reaction time required for tail flicking response at 1.2 ug/kg, intracerebrally after 2 hrs by tail-flicking reaction method.
The subject of series [37] is Mus musculus. The series can be described thus: Analgesic activity in mouse assessed as reaction time required for tail flicking at 2.2 ug/kg, intracerebrally after 3.3 hrs by light radiation method.
Series [38] concerns Rattus norvegicus. The series is described as follows: Analgesic activity in rat assessed as reaction time required for tail flicking response at 1.2 ug/kg, intracerebrally after 1 hr by tail-flicking reaction method.

In the case of `CSCC[C@@H]1NC(=O)[C@H](CC(C)C)NC(=O)[C@H](CCCNC(=N)N)NC(=O)[C@H](CO)NC(=O)[C@@H]2CSSC[C@@H]3NC(=O)[C@H](CO)NC(=O)CNC(=O)[C@H]([C@@H](C)O)NC(=O)[C@H](CSSC[C@H](N)C(=O)N[C@@H](CCCCN)C(=O)NCC(=O)N[C@@H](CCCCN)C(=O)NCC(=O)N[C@@H](C)C(=O)N[C@@H](CCCCN)C(=O)N2)NC(=O)[C@H](CSSC[C@@H](C(=O)O)NC(=O)[C@H](CCCCN)NC(=O)CNC(=O)[C@H](CO)NC(=O)[C@H](CCCNC(=N)N)NC3=O)NC(=O)[C@H](CC(=O)O)NC(=O)[C@H](Cc2ccc(O)cc2)NC1=O` [listing 1 of 2 here], the Activity with Carassius carassius [1] came to 80%; in the series on Carassius carassius [2] it was 100%; in the series with Carassius carassius [3], 60%; with Carassius carassius [4] it was 100%.

Regarding `CSCC[C@@H]1NC(=O)[C@H](CC(C)C)NC(=O)[C@H](CCCNC(=N)N)NC(=O)[C@H](CO)NC(=O)[C@@H]2CSSC[C@@H]3NC(=O)[C@H](CO)NC(=O)CNC(=O)[C@H]([C@@H](C)O)NC(=O)[C@H](CSSC[C@H](N)C(=O)N[C@@H](CCCCN)C(=O)NCC(=O)N[C@@H](CCCCN)C(=O)NCC(=O)N[C@@H](C)C(=O)N[C@@H](CCCCN)C(=O)N2)NC(=O)[C@H](CSSC[C@@H](C(=O)O)NC(=O)[C@H](CCCCN)NC(=O)CNC(=O)[C@H](CO)NC(=O)[C@H](CCCNC(=N)N)NC3=O)NC(=O)[C@H](CC(=O)O)NC(=O)[C@H](Cc2ccc(O)cc2)NC1=O` [listing 2 of 2 here], the Activity in the series with Mus musculus [5] amounted to 40.6 s; with Mus musculus [6], 12.9 s; in the series with Mus musculus [7], 37 s; with Rattus norvegicus [8], 2.9 s; in the series on Rattus norvegicus [9], 2.9 s; with Mus musculus [10] it was 11.4 s. The Activity was found to be 12 s with Mus musculus [11]; 36 s in the series on Mus musculus [12]; 2.5 s in the series with Rattus norvegicus [13]; 3 s in the series on Rattus norvegicus [14]; 26 s in the series on Mus musculus [15]; 12.6 s in the series on Mus musculus [16]. Further, the Activity amounted to 12 s with Mus musculus [17]; 11.9 s in the series on Mus musculus [18]; 11.9 s in the series on Mus musculus [19]; 43 s in the series with Mus musculus [20]; 23.2 s in the series with Mus musculus [21]; 20 s in the series on Mus musculus [22]. For the same molecule, the Activity was 9 s in the series with Mus musculus [23]; 3.1 s with Rattus norvegicus [24]; 55.2 s with Mus musculus [25]; 46.4 s in the series on Mus musculus [26]; 19.6 s with Mus musculus [27]; 12.1 s in the series with Mus musculus [28]. Moreover, the Activity in the series on Mus musculus [29] was found to be 7.7 s; in the series on Mus musculus [30] it was 11.8 s; in the series on Mus musculus [31], 12 s; in the series on Mus musculus [32] it was 13.4 s; with Mus musculus [33], 14 s; in the series on Mus musculus [34] it was 13.8 s. The Activity is 2.8 s in the series on Rattus norvegicus [35], 3.4 s with Rattus norvegicus [36], 8.6 s in the series with Mus musculus [37] and 2.8 s in the series on Rattus norvegicus [38].
